Source: the supplement of paper PMC10498489
This is a selection; strong and weak results do not stand in their true shares.

These molecules were tested on HepG2 Srxn1-GFP reporter cells (+30 nM CDDO-Me) (assay: Srxn1-GFP intensity median modified Z-score relative to plate median; higher = stronger NRF2 / oxidative stress reporter activation, active = hit call of the paper). Details: 10 µM; exposure time: 24h;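 active = median modified Z-score above 1.96; inactive = 1.96 or below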.
In short: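 HepG2 Srxn1-GFP BAC reporter cells were seeded at 20,000 per well in 96-well plates and co-exposed for 24 h to compound at 10 μM and an NRF2 activator at 30 nM, with DMSO at ≤0.1%, in three replicate plates. Cells were fixed with formaldehyde, stained with Hoechst and imaged by confocal microscopy, and cytoplasmic GFP was measured per cell, with images holding under 100 cells discarded. The reported value is the median over replicates of each plate's modified Z-score of GFP intensity. For this score, scaling used 1.4826 × median absolute deviation.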

| SMILES | Srxn1-GFP intensity median modified Z-score |
| --- | --- |
| O=P(O)(O)F [euspeclibcmpd2451] | inactive: -0.14 |
